# Target: SidN T55A/Y57A/R80A, recombinant (Legionella pneumophila)
# Assay: SEC
substance,measurement,value
"SidN T55A/Y57A/R80A, recombinant (natural protein)",stoichiometry N,2

# Reference: article PMC10729856, “The bacterial effector SidN/Lpg1083 promotes cell death by targeting Lamin-B2” (2023)
